PSTVd stem 3 mutant pool in Nicotiana benthamiana

The measurements come from Wu et al. 2024 (doi:10.1371/journal.ppat.1012142).

Region: stem 3 of PSTVd (intermediate strain), upper and lower strand joined, each 5' to 3', the first 8 letters being the upper strand. Wild type: GUGGUUCCGGAACCGC. Varied positions (N): GUGGUUCCGNANNCNN.

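Three N. benthamiana plants were inoculated with the whole mutant pool. Progeny were sequenced from the inoculated region (day 5), the margin of the inoculated leaf (day 10) and systemic leaves (day 12).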

Values are reads per thousand in the sample; higher means more abundant, 0 means not found.
Each value is the mean of three plants.
"Pool" is the share in the plasmid pool used as inoculum, on the same scale.
The inoculated region was read from the minus strand, the other sites from the plus strand.
IR is the inoculated region, LM the leaf margin, Sys the systemic leaves.
Wild type was 17.3 per thousand in the pool and the most common sequence in every sample (inoculated region 330, 345, 235; leaf margin 794, 766, 816; systemic leaves 830, 792, 869).
The authors trace changes outside the varied positions to PCR and sequencing errors or to mutation in the plant; presence does not show that a variant is infectious alone.
With 27,691-54,225 reads a sample, very low values are single reads.

For GUGGUUCCGCAAGCAC (pool 0.862) the result was IR 0.324; LM 0; Sys 0.
For GUGGUUCCGCACGCUG (pool 0.785) the result was IR 0.344; LM 0; Sys 0.
For GUGGGUCCGUAAGCUU (pool 0.0154) the result was IR 0; LM 0; Sys 0.
For GUGGUUCCGUAGACAC (pool 0.769) the result was IR 0.824; LM 0.142; Sys 0.
For GUGGUUCCGCAUCCUG (pool 0.846) the result was IR 0.349; LM 0.00944; Sys 0.
For GUGGUUCCGCAGGCGC (pool 0.785) the result was IR 0.419; LM 0.0347; Sys 0.
For GUGGUUCGGGAUCCGC (pool 0.0154) the result was IR 0; LM 0; Sys 0.
For GUGGUUCCGUACGCGA (pool 0.893) the result was IR 0.279; LM 0.0212; Sys 0.
For GUGGUUCCGGAUCCGA (pool 0.908) the result was IR 0.398; LM 0.0865; Sys 0.00615.
For GUGGUUCCGAAUUCCA (pool 0.970) the result was IR 0.807; LM 0.493; Sys 0.
For GUGGUUCCGGAGUCCA (pool 1.71) the result was IR 1.33; LM 0.0708; Sys 0.0124.
For GUGGUUCCGGAAUCAC (pool 1.00) the result was IR 0.889; LM 0.527; Sys 0.
For GUGGGUCCGCAUCCAU (pool 0.0154) the result was IR 0; LM 0; Sys 0.
For GUGGUUCCGGACACGG (pool 0.846) the result was IR 0.394; LM 0; Sys 0.
For GUGGUUCCGCAUCCAA (pool 0.939) the result was IR 0.300; LM 0.00944; Sys 0.
For GUGGUUCCGAAGGCUG (pool 0.646) the result was IR 0.794; LM 0.193; Sys 0.
For GUGGUUCCGUAUGCCC (pool 0.693) the result was IR 0.344; LM 0.0226; Sys 0.
For GUGGUUCCGAACGCCC (pool 0.785) the result was IR 0.240; LM 0.0215; Sys 0.
For GUGGUUCCGCAGACCU (pool 0.754) the result was IR 0.733; LM 0.107; Sys 0.
For GUGGUUCCGAAGACGG (pool 0.846) the result was IR 0.672; LM 0.0226; Sys 0.
For GUGGUUCCGAACCCAC (pool 0.816) the result was IR 0.767; LM 0.191; Sys 0.
For GUGGUUCAGGCACCGC (pool 0.0154) the result was IR 0; LM 0; Sys 0.
For GUGGUUCCGAAUACAG (pool 0.877) the result was IR 0.675; LM 0; Sys 0.
For GUGGUUCCGAAACCGA (pool 0.754) the result was IR 0.367; LM 0.0215; Sys 0.
For GUGGUUCCGUAGGCAA (pool 0.800) the result was IR 0.822; LM 0.155; Sys 0.
For GUGGUUCCGCAUGCUC (pool 1.75) the result was IR 0.523; LM 0.299; Sys 0.00811.
For GUGGUUCCGGAGUCGC (pool 0.862) the result was IR 0.698; LM 0.0295; Sys 0.
For GUGGUUCCGGAAACUC (pool 0.846) the result was IR 0.283; LM 0.0106; Sys 0.00621.
For GUGGUUCCGGAGGCGG (pool 1.45) the result was IR 0.494; LM 0.0212; Sys 0.112.
For GUGGUUCCGGAGGCCG (pool 0.862) the result was IR 0.269; LM 0.0120; Sys 0.
For GUGGUUCCGAAUUCGU (pool 0.600) the result was IR 0.779; LM 0.0106; Sys 0.
For GUGGUUCCGUAAACUA (pool 1.29) the result was IR 0.635; LM 0.0200; Sys 0.0435.
For GUGGUUCCGAAUGCGU (pool 0.662) the result was IR 0.771; LM 0.131; Sys 0.
For GUGGUUCCGUACCCAU (pool 0.877) the result was IR 1.12; LM 0.00944; Sys 0.0249.
For GUGGUUCCGACGCCAA (pool 0.400) the result was IR 0.996; LM 1.12; Sys 1.02.
For GUGGUUCCGAACACAU (pool 0.862) the result was IR 0.807; LM 0.552; Sys 0.

3 of these entries, quoted again:

sequence	pool	IR	LM	Sys
GUGGUUCCGAACACAU	0.862	0.807	0.552	0
GUGGGUCCGCAUCCAU	0.0154	0	0	0
GUGGUUCCGGAGGCCG	0.862	0.269	0.0120	0